Here are results for one substance from article PMC8971458, “Assembly mechanism of the pleomorphic immature poxvirus scaffold” (2022).

For the data set, the system named is D13 N-terminal truncation mutant D13(18-548), Vaccinia virus, Western Reserve strain, P68440 18-548. As to the kind of experiment: negative-stain transmission electron microscopy.

One may read the stoichiometry N as a count of units in the complex or per binding partner. On to “D13 N-terminal truncation mutant D13(18-548)”, for which the stoichiometry N worked out at 3.
